Primary screen of a compound library

From ChEMBL document CHEMBL3988442, “University of Dundee, Small-Polar-MMV Screening Library” (2021).

A: 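Growth of Mycobacterium tuberculosis over 3 days (7H9 medium with glucose and tyloxapol); the read-out is not stated. Compounds at 50 µM. Direction is inferred from retests: higher values go with more growth inhibition. Size under these conditions: about 69,000 compounds, about 760 of them at 50% or above in at least one test.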
B: 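Growth of Mycobacterium tuberculosis over 4 days (cholesterol / DPPC medium with tyloxapol); the read-out is not stated. Compounds at 50 µM. Direction is inferred from retests: higher values go with more growth inhibition. Size under these conditions: about 69,000 compounds, about 370 of them at 50% or above in at least one test.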

The filed quantity is “Percent Effect” (%).
The record does not define 0% and 100%; most values in the screen are far below 50% and negative numbers occur (in some assays of this library far below -100).
Many other results are left out here, so strong results are more common than in the screen.
Two or more numbers in one place are separate tests of the same structure; such repeats can differ widely.
A dash means the value is not listed here; it may have been measured.

| structure | A | B |
|---|---|---|
| `O=C(Nc1cnn(Cc2ccc(F)cc2Cl)c1)C1CC1` | 50.41% | - |
| `N#Cc1cn[nH]c1NCc1cc(I)cc(I)c1O` | 33.95% | - |
| `Cc1ccc(Cl)c(NC(=O)NC2(C)CCOC2)c1` (stereo not given) | 88.52% | - |
| `O=C(Cn1cccnc1=O)NCCc1ccc2c(c1)OCCO2` | -9.186% | - |
| `CCN(CC)S(=O)(=O)CC(=O)Nc1ccsc1` | -0.711% & -24.78% | - |
| `COCCNC(=O)NCc1ccc(OC(C)C)c(F)c1` | 9.403% | 6.021% |
| `COc1ccccc1OC1CN(C(=O)Cc2c(C)nc3ccccn23)C1` | 7.919% | - |
| `COC(=O)COn1c(SCC(=O)OC)nc2ccccc2c1=O` | 20.31% | - |
| `CC(Cn1cccn1)NCc1csc(-c2ccccc2F)n1` (stereo not given) | 83.02% | - |
| `Cc1ccc2nc(-c3cnc(N)nc3)cc(C(=O)N(C)C)c2c1` | - | -10.63% |
| `CCS(=O)(=O)c1nccn1-c1cccc(F)c1` | 30.47% | 5.224% |
| `Cc1ccc(C(=O)NCCSCc2cccs2)cn1` | -12.48% | - |
| `CCN(Cc1cccs1)S(=O)(=O)N(C)C(C)C` | -1.995% & 4.914% | - |
| `Cc1cc(N2CCOC(CN)C2)nc(-c2ccccc2)n1` (stereo not given) | 8.633% | - |
| `O=C(O)C(F)(F)F.O=C(O)C(F)(F)F.c1cncc(-c2ccc3c(c2)CCC32CCN(Cc3ccco3)CC2)c1` | 63.92% & 66.71% | 54.78% |
| `O=C(Cc1ccsc1)N1CCC(c2ccncc2)CC1` | -18.72% | - |
| `Cc1cc(N2CCC(CO)(CC3CCCCO3)CC2)c2ccccc2n1` (stereo not given) | -6.765% & 9.711% | 13.69% |
| `CC(=O)NCCNC(=O)c1ccc(C)c(-n2cccc2)c1` | -13.93% | - |
| `O=C(NCC(O)c1ccc(F)cc1F)c1ccccc1F` (stereo not given) | 7.926% | - |
| `COc1ccc(C2CCCCCN2S(=O)(=O)N(C)C)cc1` (stereo not given) | 2.183% & 19.04% | - |
| `O=C1COC2(CCN(Cc3ccco3)CC2)CN1Cc1cccnc1` | -4.174% | - |
| `Cc1cnn(CCNCC(O)COc2ccc(Cl)cc2Cl)c1` (stereo not given) | 2.773% | 24.87% |
| `Cc1cccc2c1OCCCC2NCc1nccn1Cc1ccccc1` (stereo not given) | 51.91% | - |
| `CCc1cnc(N)nc1NC(C)c1cnn(C)c1` (stereo not given) | -15.85% | -16.22% |
| `COc1ccc(CN2CCOC[C@H](OCc3ccccc3)C2)cc1` | 26.03% & 17.56% | - |
| `CN(C)S(=O)(=O)c1ccc(CN2CCC(C(N)=O)CC2)o1` | 12% & 83.69% | 16.02% |
| `O=C(Nc1cccnc1N1CCSCC1)c1ccc2c(c1)CCC2` | -0.7691% | 17.11% |
| `CC1(C)Oc2ccc(NC(=O)c3ccc(=O)[nH]n3)cc2O1` | 28.43% & 5.931% | 1.414% |
| `CN(CCCNC(=O)c1ccccc1F)CC(F)(F)F` | - | 24.57% |
| `COCCC(=O)NCC1COc2cc(OC)ccc2C1` (stereo not given) | 29.24% | 13.4% |
| `Cc1cnc(N2C(=O)CSC2c2ccccc2)s1` (stereo not given) | 8.805% & 26.29% | - |
| `Cc1cccc(OCC(O)CNCc2c(C)nn(C)c2N(C)C)c1` (stereo not given) | -8.119% | - |
| `COCCSCC(=O)NCc1ccc(N(C)C)cc1` | 23.35% | - |
| `Cc1cc2c(=O)n(CC(=O)N3CCn4cccc4C3C(C)C)cnc2s1` (stereo not given) | - | -7.561% & 3.43% |
| `CCC1CN(C(=O)c2cc(CN(C)CCc3ccccc3)on2)CCO1` (stereo not given) | -3.761% | -6.487% |
| `Cc1ccc2nc(C)cc(C(=O)NCc3csc(N(C)C)n3)c2c1` | 20.77% | -12.26% |
| `Fc1cccc(Nc2nc(N3CCCC3)nc3c2CNCC3)c1` | 83.85% | 69.5% |
| `CN(Cc1nnc(C2CC2)o1)CC1CCCN1c1cccnn1` (stereo not given) | -20.3% | - |
| `Cc1cc(C(=O)NCc2ccnc(N(C)C)c2)c(C)o1` | -18.17% | - |
| `[H][C@]12CC[C@]([H])(CN(Cc3[nH]cnc3C)C1)N(Cc1cccc(C)n1)C2` | 54.3% & -2.152% | - |
| `COC(=O)COn1c(SC)nc2ccccc2c1=O` | 45.96% | - |
| `Cc1noc(C2CCC3(CCN(C(=O)c4cc(C5CC5)on4)CC3)O2)n1` (stereo not given) | 1.111% | - |
| `CCOc1ccc(Cl)cc1CCNC(=O)Cn1ccccc1=O` | -11.31% | 9.182% |
| `Cn1cccc(NC(=O)COc2ccc(Cl)cc2)c1=O` | -5.4% & 6.946% | -6.796% |
| `CN1CCCCC1c1ncc2c(n1)CCN(Cc1ccccc1Cl)C2` (stereo not given) | 43.89% | - |
| `CCc1[nH]c2c(CNc3cncc(C(=O)N(C)C)n3)cc(C)cc2c1C` | -14.58% | 7.946% |
| `COc1cc(C)sc1C(=O)NCCNc1ccccc1` | 65.31% & 74.25% | 50.84% |
| `Cc1nnc2n1CCN(C(C(=O)NC1CC1)c1ccccc1)C2` (stereo not given) | - | 17.68% |
| `Cc1cc(C(=O)NCC2Cn3nnc(C)c3CO2)no1` (stereo not given) | 109.5% & 7.13% | - |
| `COCCNc1nc(-c2ccc(S(=O)(=O)N3CCCCC3)cc2)cs1` | -11.39% | -4.875% |
| `CCCN1CCC(CC(=O)N2CC(C)(C)[C@@](C)(O)C2)CC1` | 40.27% | - |
| `COc1ccc2cc(C(=O)NCCNc3ccc(C)nn3)[nH]c2c1` | -17.69% | - |
| `CC(C)n1ccnc1C1CCN(Cc2ccc(Cl)s2)CC1` | 54.43% | - |
| `CCN(CC)S(=O)(=O)NCCc1cc(C)ccc1OC` | -0.7897% | - |
| `N#CCCCn1nnc(C2(NC(=O)c3ccccc3)CCCC2)n1` | -11.76% | -1.741% |
| `O=C(C1CCCOC1)N1CCN(CC(F)(F)F)c2ccccc21` (stereo not given) | 10.95% | - |
| `Cc1nc(COCc2cnc3n2CCN(C)C3C)cs1.O=C(O)C(F)(F)F` (stereo not given) | -9.801% & -3.505% | - |
| `CC(C)OCCS(=O)(=O)c1nccn1-c1cccc(F)c1` | 18.75% | -9.749% |
| `Fc1ccc(CN2CCCC(c3nnc(-c4cnccn4)o3)C2)cc1F` (stereo not given) | - | 18.82% |
| `CC(=O)N1Cc2ccccc2C[C@H]1C(=O)Nc1ccccn1` | 3.677% | - |
| `O=C(c1[nH]nc(C2CC2)c1Cl)N1CCCC1` | - | 75.84% |
| `COc1cccc(CNc2cc(C)nc(-c3ccncc3)n2)c1O` | 36.02% | - |
| `Cc1noc(CN(C)CC2(O)CCCN(CCC3CCCCC3)C2=O)n1` (stereo not given) | - | 0.6647% |
| `Cc1ccc(CN(Cc2ccncc2)C2CCN(C)CC2)s1` | 102.1% & -10.55% | - |
| `COC(=O)CSCc1nc(-c2ccc(Cl)cc2)no1` | 43.6% & 45.61% | -4.731% |
| `Cc1cccc(=O)n1CCCNc1nc(N(C)C)nc2c1CCNC2` | -38.14% | - |
| `O=C(O)C(F)(F)F.O=C(O)C(F)(F)F.O=C(O)C(F)(F)F.[H][C@]12C[C@@H](CN3CCCC3)N(C)[C@@]1([H])CCN(Cc1ccoc1)C2` | -3.038% & -37.85% | - |
| `CCc1nnc2n1CCN(C(C(=O)NC1CC1)c1ccc(F)cc1)C2` (stereo not given) | - | 11.13% |
| `COc1ccccc1C(O)CNC(=O)Nc1ccccn1` (stereo not given) | -4.672% | -4.393% |
| `O=C(CN(Cc1ccccc1)CC1CCOCC1)Nc1nccs1` | 5.21% | - |
| `CN(CCc1ccccc1)Cc1nc(Cc2cccc(F)c2)no1` | - | 54.55% |
| `c1cnc(N2CCCC(c3cncc(-n4ccnc4)n3)C2)nc1` (stereo not given) | 17.18% | -14.17% |
| `CCCNC(=O)c1cc(C(C)C)nc(N2CCCCC2)n1` | -10.78% | - |
| `O=C(c1cncnc1)N1CCCC(c2nccs2)C1` (stereo not given) | - | -1.309% & 3.058% |
| `O=C(O)C(=O)O.c1csc(CN2CC(c3nc(-c4cnccn4)no3)C2)c1` | 119.2% & 11.67% | - |
| `COC(=O)c1cccc(C(=O)NCc2ccco2)n1` | -5.805% | - |
| `Cc1noc(NC(=O)c2ccc(C)c(F)c2)n1` | 94.51% | - |
| `Cn1cc(CNCC2(O)CCCN(Cc3ccc(F)c(F)c3)C2=O)cn1` (stereo not given) | -33.76% | - |

For reference, 6 entries once more:

structure,A,B
CCOc1ccc(Cl)cc1CCNC(=O)Cn1ccccc1=O,-11.31%,9.182%
O=C(O)C(F)(F)F.O=C(O)C(F)(F)F.O=C(O)C(F)(F)F.[H][C@]12C[C@@H](CN3CCCC3)N(C)[C@@]1([H])CCN(Cc1ccoc1)C2,-3.038% & -37.85%,-
Cc1ccc(Cl)c(NC(=O)NC2(C)CCOC2)c1 (stereo not given),88.52%,-
Cc1noc(NC(=O)c2ccc(C)c(F)c2)n1,94.51%,-
CN1CCCCC1c1ncc2c(n1)CCN(Cc1ccccc1Cl)C2 (stereo not given),43.89%,-
CC(C)OCCS(=O)(=O)c1nccn1-c1cccc(F)c1,18.75%,-9.749%